Anti-infective test results gathered from many reports (values: NIAID ChemDB through PubChem).

Shared fields: cytotoxicity tests; cells: Huh7; read-out: CC50

Blank or dashed fields: not listed here. Rows are shuffled and stem from different studies. CCn: concentration that lowers growth or viability of the cells by n%.

NC(=O)[C@@H]1O[C@@H]1C(=O)Nc1ccc(OCc2ccccc2)c(Cl)c1 ; read by: MTT ; value: 12.6 µM
N#Cc1c(Nc2cc(C(F)(F)F)cc(C(F)(F)F)c2)s[nH]c1=O ; value: >50 µM
CC1CCC(C(=O)N(c2cc(-c3ccccc3)sc2C(=O)O)C(C)C)CC1 ; value: 77 µM
N#Cc1c(Nc2ccc(Br)c(Cl)c2)s[nH]c1=O ; value: >50 µM
Cc1nc(N(C)C)nc(N[C@@H]2C[C@H](CO)[C@@H](O)[C@H]2O)c1-c1nc2ccccc2s1 ; read by: MTS ; value: >25 µM
CC(=O)N1CCN(C(C(=O)N2CCC[C@H]2C(=O)Nc2ccc(C#Cc3ccc(NC(=O)[C@@H]4CCCN4C(=O)C(c4ccccc4)N4CCN(C(C)=O)CC4)cc3)cc2)c2ccccc2)CC1 ; read by: resazurin ; value: >10 µM
NC(=O)[C@@H]1O[C@@H]1C(=O)Nc1ccc(Br)c(Cl)c1 ; read by: MTT ; value: 2 µM
N#Cc1c(Nc2ccc(Cc3ccccc3)cc2)s[nH]c1=O ; value: >50 µM
Cc1ccc(NC(=O)[C@H]2O[C@H]2C(N)=O)cc1C ; read by: MTT ; value: >100 µM
O=C(Nc1ccc(C#Cc2ccc(NC(=O)[C@@H]3CCCN3C(=O)C(c3ccccc3)N3CC[C@@H](O)C3)cc2)cc1)[C@@H]1CCCN1C(=O)C(c1ccccc1)N1CC[C@@H](O)C1 ; read by: resazurin ; value: >10 µM
CCCCOC(=O)/C=C/c1ccc(O)c(O)c1 ; read by: MTS ; value: 39 µM
COc1ccc2c(c1)[C@@H]1C[C@]1(C(=O)N1[C@@H]3CC[C@H]1CN(C)C3)Cn1c-2c(C2CCCCC2)c2ccc(C(=O)NS(=O)(=O)N(C)C)cc21 ; read by: resazurin ; value: 26 µM
Cc1nc(N)nc(N[C@@H]2C[C@H](CO)[C@@H](O)[C@H]2O)c1-c1nc2ccccc2s1 ; read by: MTS ; value: 18 µM
CNc1nc(=O)n2c3c1nnn3C[C@H]1OC2[C@H](O)[C@@H]1O ; value: 6.7 µM
COc1cc(Cc2cnc(/N=C3\C(=O)N(CN4CCN(Cc5ccccc5)CC4)c4ccc(F)cc43)nc2N)cc(OC)c1OC ; value: <50 µg/mL
CC(C)(C)CC[C@@]1(C)C(=O)C(C2=NS(=O)(=O)c3cc(NS(C)(=O)=O)ccc3N2)=C(O)c2ccccc21 ; read by: MTT ; value: 21.7 µM
CN(C)[C@@](C)(C(=O)N1CCC[C@H]1C(=O)Nc1ccc(C#Cc2ccc(NC(=O)[C@@H]3CCCN3C(=O)[C@@](C)(c3ccccc3)N(C)C)cc2)cc1)c1ccccc1 ; read by: resazurin ; value: 3.11 µM
CCCC(NC(=O)[C@@H]1C[C@@H](OC(=O)N2CCc3ccccc3C2)CN1C(=O)[C@H](NC(=O)[C@H](NC(=O)c1cnccn1)C(C)C)C(C)C)C(=O)C(=O)NCCc1ccccc1 ; value: 20 µM
CCCCNc1nc(=O)n2c3c1nnn3C[C@H]1OC2[C@H](O)[C@@H]1O ; value: >100 µM
NC(=O)[C@@H]1O[C@@H]1C(=O)Nc1ccccc1 ; read by: MTT ; value: >100 µM
OCc1nc(-c2cnc(N3CCC(Oc4ccccc4C(F)(F)F)CC3)s2)no1 ; read by: MTT ; value: >5 µM
O=C(Nc1ccc(C#Cc2ccc(NC(=O)[C@@H]3CCCN3C(=O)[C@H](c3ccccc3)N3CCC(O)CC3)cc2)cc1)[C@@H]1CCCN1C(=O)[C@H](c1ccccc1)N1CCC(O)CC1 ; read by: resazurin ; value: 5 µM
O=c1[nH]c(=O)n2c3c1nnn3CC1OC2[C@H](O)[C@@H]1O ; value: 24.4 µM
CCn1cc(C(=O)O)c(=O)c2cc(F)c(N3CCN(CN4C(=O)/C(=N\c5ncc(Cc6cc(OC)c(OC)c(OC)c6)c(N)n5)c5cc(F)ccc54)CC3)cc21 ; value: >50 µg/mL
Nc1ncnc2c1c(Cl)nn2[C@@H]1C=C(CO)[C@@H](O)[C@H]1O ; read by: tetrazolium ; value: >100 µM
COc1ccnc2[nH]cc(C(=O)C(=O)N3CCN(C(=O)c4ccccc4)C[C@H]3C)c12 ; value: >225 µM
Nc1ccn([C@@H]2C[C@H](CO)[C@@H](CO)C23CC3)c(=O)n1 ; read by: XTT ; value: >50 µM
CCCCCCOC(=O)/C=C/c1ccc(O)c(O)c1 ; read by: MTS ; value: 37.6 µM
N#Cc1c(NC2C3CC4CC(C3)CC2C4)s[nH]c1=O ; value: >50 µM
N#CCn1c(=O)c2nnn3c2n(c1=O)C1O[C@H](C3)[C@@H](O)[C@H]1O ; value: >100 µM
C=C1[C@H](CO)[C@@H](O)C[C@@H]1n1cnc2c(=O)[nH]c(N)nc21 ; read by: MTT ; value: 28 µM
NC(=O)[C@@H]1O[C@@H]1C(=O)O ; read by: MTT ; value: >100 µM
N#Cc1c(Nc2ccc(Br)c(F)c2)s[nH]c1=O ; value: >50 µM
Nc1ncnc2c1ncn2[C@@H]1C[C@H](CO)[C@@H](O)C12CC2 ; read by: XTT ; value: >50 µM
CC1=CN(c2ccc([N+](=O)[O-])cc2)[C@@H](c2ccc(Cl)cc2)[C@@H](C)C1=O ; read by: MTT ; value: >50 µM
Nc1ncnc2c1c(Br)nn2[C@@H]1C=C(CO)[C@@H](O)[C@H]1O ; read by: tetrazolium ; value: 80.7 µM
Nc1ncnc2c1c(C#Cc1ccc(-c3ccccn3)nc1)cn2[C@H]1C[C@H](O)[C@@H](CO)O1 ; value: 2 µM
O=C(Nc1ccc(C#Cc2ccc(NC(=O)[C@@H]3CCCN3C(=O)[C@@H](c3ccccc3)N3CCOCC3)cc2)cc1)[C@@H]1CCCN1C(=O)[C@@H](c1ccccc1)N1CCOCC1 ; read by: resazurin ; value: >10 µM
N#Cc1c(Nc2cccnc2)s[nH]c1=O ; value: >50 µM
COc1cc(Cc2cnc(/N=C3\C(=O)N(CN(C)C)c4ccc(F)cc43)nc2N)cc(OC)c1OC ; value: <50 µg/mL
O=C(Nc1ccc(C#Cc2ccc(NC(=O)[C@@H]3CCCN3C(=O)[C@@H](c3ccccc3)N3CCCC3)cc2)cc1)[C@@H]1CCCN1C(=O)[C@@H](c1ccccc1)N1CCCC1 ; read by: resazurin ; value: 3.1 µM
C=C1C(COP(=O)(N[C@@H](C)C(=O)OC)Oc2ccccc2)C(O)C(F)C1n1cnc2c(N)ncnc21 ; read by: MTT ; value: >300 µM

Repeating the final 5 entries:

SMILES	read by	value
O=C(Nc1ccc(C#Cc2ccc(NC(=O)[C@@H]3CCCN3C(=O)[C@@H](c3ccccc3)N3CCOCC3)cc2)cc1)[C@@H]1CCCN1C(=O)[C@@H](c1ccccc1)N1CCOCC1	resazurin	>10 µM
N#Cc1c(Nc2cccnc2)s[nH]c1=O	-	>50 µM
COc1cc(Cc2cnc(/N=C3\C(=O)N(CN(C)C)c4ccc(F)cc43)nc2N)cc(OC)c1OC	-	<50 µg/mL
O=C(Nc1ccc(C#Cc2ccc(NC(=O)[C@@H]3CCCN3C(=O)[C@@H](c3ccccc3)N3CCCC3)cc2)cc1)[C@@H]1CCCN1C(=O)[C@@H](c1ccccc1)N1CCCC1	resazurin	3.1 µM
C=C1C(COP(=O)(N[C@@H](C)C(=O)OC)Oc2ccccc2)C(O)C(F)C1n1cnc2c(N)ncnc21	MTT	>300 µM